Pooled drug test results. Numbers come from NIAID ChemDB, via PubChem.

Shared fields: tests in culture; organism: HIV-1; read-out: EC50

Neighbouring rows are from separate reports.

SMILES | strain | cell line | changes | result
CC(C)CN(C[C@@H](O)[C@H](Cc1ccccc1)NC(=O)[C@@H](NC(=O)CNC(C)(C)c1cccc(F)c1)C(C)(C)C)S(=O)(=O)c1ccc2ncsc2c1 | RF | MT-2 | - | <1 µM
O=C(CSc1nc(O)c(Cc2ccc(F)cc2)c(=O)[nH]1)Nc1cccc2ccccc12 | - | MAGI | - | >100 µM
CC(C)N1C[C@H](C)N2C(=C(O)C3C(=O)N4Cc5ccc(F)cc5OCCCCCS(=O)(=O)N(C)C(=N4)C32)C1=O | LAII(IIIB) | MT-4 | - | 2.29 µM
C[C@@H]1O[C@](/C=C/C2CC2)(C(F)(F)F)c2cc(Cl)ccc2NC1=O | - | - | RT-K103N | <0.035 µM
O=C1Nc2ccc(Cl)cc2[C@@](C#CC2CC2)(C(F)(F)F)O1 | - | MT-4 | K103N/Y181C | 0.0828 µM
CC(C)CN(C[C@@H](O)[C@H](Cc1ccccc1)NC(=O)[C@@H](NC(=O)[C@@H](C)NC(C)(C)c1ccccc1)C(C)(C)C)S(=O)(=O)c1ccc2ncsc2c1 | RF | MT-2 | - | <1 µM
CCN1C[C@H](C)N2C(=C(O)C3C(=O)N4Cc5ccc(F)cc5C(=O)NCCCCCCNC(=O)C(=N4)C32)C1=O | LAII(IIIB) | MT-4 | - | 2.35 µM
O=S(=O)(O)c1ccc(N=Nc2ccc(N=Nc3ccc(/C=C/c4ccc(N=[N+]([O-])c5ccc(/C=C/c6ccc(N=Nc7ccc(N=Nc8ccc(S(=O)(=O)O)cc8)c8ccccc78)cc6S(=O)(=O)O)c(S(=O)(=O)O)c5)cc4S(=O)(=O)O)c(S(=O)(=O)O)c3)c3ccccc23)cc1 | - | CEM | - | 5 µM
OC[C@@H]1OC[C@@H](On2cnc3c(Cl)ncnc32)O1 | - | MT-4 | - | >100 µg/mL
C[C@]1(CO)O[C@@H](n2cc(F)c(N)nc2=O)[C@H](O)[C@@H]1O | IIIB | MT-4 | - | >100 µM
Cc1ccc(S(=O)(=O)N(CC(C)C)C[C@@H](O)[C@H](Cc2ccccc2)NC(=O)[C@@H](NC(=O)CNC(C)(C)c2cccc(F)c2)C(C)(C)C)cc1N | RF | MT-2 | - | <1 µM
CCN1C[C@H](C)N2C(=C(O)C3C(=O)N4Cc5ccc(F)cc5OCCCCNC(=O)C(=N4)C32)C1=O | LAII(IIIB) | MT-4 | - | 3.67 µM
CC(C)CN(C[C@@H](O)[C@H](Cc1ccccc1)NC(=O)[C@@H](NC(=O)CNC(C)(C)c1cccc(F)c1)C(C)C)S(=O)(=O)c1ccc(N)cc1 | RF | MT-2 | - | <1 µM
OC[C@H]1O[C@H](On2cnc3c(Cl)ncnc32)CS1 | - | MT-4 | - | >100 µg/mL
CCCNc1nc(N)nc2c1ncn2[C@H]1C=C[C@@H](CO)C1 | - | MT-2 | - | 16 µM
CC[C@@H]1O[C@](C#CC2CC2)(C(F)(F)F)c2cc(Cl)ccc2NC1=O | RF | MT-2 | - | <0.0084 µM
O=C(NNc1ccn([C@H]2CC[C@@H](CO)O2)c(=O)n1)c1ccccc1O | - | MT-4 | - | >100 µM
CCN1C[C@H](C)N2C(=C(O)C3C(=O)N4Cc5ccc(F)cc5OC/C=C/CCCS(=O)(=O)N(C)C(=N4)C32)C1=O | LAII(IIIB) | MT-4 | - | 2.54 µM
Nc1c(S(=O)(=O)O)cc(S(=O)(=O)O)c2ccc(N=Nc3ccc(/C=C/c4ccc(N=Nc5ccc6c(S(=O)(=O)O)cc(S(=O)(=O)O)c(N)c6c5O)cc4S(=O)(=O)O)c(S(=O)(=O)O)c3)c(O)c12 | - | CEM | - | 20 µM
C[C@H](Cn1cnc2c(N)ncnc21)OCP(=O)(O)O | - | TZM-bl | NL/348 | 4 µM
FC(F)(Sc1ncccn1)c1nc2ccccc2o1 | HEPT/236 | - | RT-P236L | 8.64 µM
COc1cc(C)cc2c(-c3c(O)cc(O)c4c3C[C@H](C)N[C@H]4C)cc(-c3cc(-c4c(O)cc(O)c5c4C[C@H](C)N[C@H]5C)c4cc(C)cc(OC)c4c3O)c(O)c12 | RF | CEM + CEM-SS | - | 11 µM
C[C@]1(CO)O[C@@H](n2cc(F)c(=O)[nH]c2=O)[C@H](O)[C@@H]1O | IIIB | MT-4 | - | >100 µM
CC(C)CN(C[C@@H](O)[C@H](Cc1ccccc1)NC(=O)[C@@H](NC(=O)CNC(C)(C)c1ccccc1)C(C)(C)C)S(=O)(=O)c1ccc(N)cc1 | RF | MT-2 | - | <1 µM
COC(=O)C(C)(C)NP(=O)(OC[C@@H]1C=C[C@H](n2cc(C)c(=O)[nH]c2=O)O1)Oc1ccccc1 | - | CEM | - | 0.29 µM
CCCCN1C(=O)N(Cc2ccc3[nH]nc(N)c3c2)[C@H](Cc2ccccc2)[C@H](O)[C@@H](O)[C@H]1Cc1ccccc1 | Amprenavir-resistant (PR M46I I47V I50V) | - | PR-M46I I47V I50V | <0.087 µM
CCN1C[C@H](C)N2C(=C(O)C3C(=O)N4Cc5ccc(F)cc5OCCCCS(=O)(=O)N(C5CC5)C(=N4)C32)C1=O | LAII(IIIB) | MT-4 | - | 2.88 µM
Nc1ccn([C@H]2CC[C@@H](CO)O2)c(=O)n1 | - | MT-4 | - | ≥1 µM
Nc1ncnc2c1ncn2O[C@H]1CS[C@@H](CO)O1 | - | MT-4 | - | >100 µg/mL
CCC(CC)(NP(=O)(OC[C@@H]1C=C[C@H](n2cc(C)c(=O)[nH]c2=O)O1)Oc1ccccc1)C(=O)OC | - | CEM | - | 30 µM
C/C(=C(/CCO)SS/C(CCO)=C(\C)N(C=O)Cc1cnc(C)nc1N)N(C=O)Cc1cnc(C)nc1N | LAV-1 | CEM/LAV-1 + CEM | - | 125 µM
COc1ncnc2c1ncn2O[C@@H]1CO[C@@H](CO)O1 | - | MT-4 | - | >100 µg/mL
COc1cc(C)cc2c(-c3c(O)cc(O)c4c3C[C@@H](C)N(C)[C@H]4C)cc(-c3cc(-c4c(O)cc(O)c5c4C[C@@H](C)N(C)[C@H]5C)c4cc(C)cc(OC)c4c3O)c(O)c12 | - | CEM + CEM-SS | - | 11.5–13.7 µM
CC(C)CN(C[C@@H](O)[C@H](Cc1ccccc1)NC(=O)[C@@H](NC(=O)[C@@H](C)NC(C)(C)c1ccccc1)C(C)(C)C)S(=O)(=O)c1ccc(N)cc1 | RF | MT-2 | - | <1 µM
O=[N+]([O-])c1ccc(/C=C/c2ccc(N=Nc3ccc(/C=C/c4ccc([N+](=O)[O-])cc4S(=O)(=O)O)c(S(=O)(=O)O)c3)cc2S(=O)(=O)O)c(S(=O)(=O)O)c1 | - | CEM | - | 7 µM
CCN1C[C@H](C)N2C(=C(O)C3C(=O)N4Cc5ccc(F)cc5OCCCCS(=O)(=O)N(CC)C(=N4)C32)C1=O | LAII(IIIB) | MT-4 | - | 2.2 µM
Nc1c(N=Nc2ccc(-c3ccc(N=Nc4c(O)ccc5cc(S(=O)(=O)O)cc(S(=O)(=O)O)c45)cc3)cc2)c(S(=O)(=O)O)cc2cc(S(=O)(=O)O)c(N=Nc3ccccc3)c(O)c12 | - | CEM | - | 10 µM
CCN1C[C@H](C)N2C(=C(O)C3C(=O)N4Cc5cc(F)c(F)cc5OCCCCCN(C)C(=O)C(=N4)C32)C1=O | LAII(IIIB) | MT-4 | - | 2.85 µM
O=C1Nc2ccc(Cl)cc2[C@@](/C=C/C2CC2)(C(F)(F)F)N1 | RF | MT-2 | - | <0.0021 µM
COC(=O)[C@H](C)NP(=O)(OC[C@@H]1C=C[C@H](n2cc(C)c(=O)[nH]c2=O)O1)Oc1ccccc1 | - | CEM | - | 0.075 µM
Cc1cc(-c2ccc(N=Nc3ccc4c(S(=O)(=O)O)cc(S(=O)(=O)O)c(N)c4c3O)c(C)c2)ccc1N=Nc1ccc2c(S(=O)(=O)O)cc(S(=O)(=O)O)c(N)c2c1O | - | CEM | - | 20 µM
O=S(=O)(Oc1ccc2ccccc2c1)c1ccc2c(c1)C(=NO)c1cc(S(=O)(=O)Oc3ccc4ccccc4c3)ccc1-2 | - | MAGI | - | 2 µM
CC(C)CN(C[C@@H](O)[C@H](Cc1ccccc1)NC(=O)[C@@H](NC(=O)CCNC(C)(C)c1ccccc1)C(C)(C)C)S(=O)(=O)c1ccc(N)cc1 | RF | MT-2 | - | <1 µM
Cc1c(-c2c([C@H](OC(C)(C)C)C(=O)O)cnc3ccccc23)cc(F)c2c1CCCO2 | - | MT-2 | - | 0.039 µM
Cc1cn([C@H]2C=C[C@@H](CO)O2)c(=O)[nH]c1=O | - | PBMC | - | 0.05 µM
C[C@]1(CO)O[C@@H](n2ccc(N)nc2=O)[C@H](O)[C@@H]1O | IIIB | MT-4 | - | >100 µM
CCC#C[C@]1(C(F)(F)F)OCC(=O)Nc2ccc(Cl)cc21 | - | - | RT-K103N | <1.763 µM
Cc1ccnc(SC(F)(F)c2nc3ccccc3o2)n1 | Calanolide-resistant (RT T139I) | - | RT-T139I | 0.43 µM
CCC(C)[C@H](NC(=O)CNC(C)(C)c1cccc(F)c1)C(=O)N[C@@H](Cc1ccccc1)[C@H](O)CN(CC(C)C)S(=O)(=O)c1ccc2ncsc2c1 | RF | MT-2 | - | <1 µM

The last 5 rows once more:

{"SMILES": "Cc1cn([C@H]2C=C[C@@H](CO)O2)c(=O)[nH]c1=O", "cell line": "PBMC", "result": "0.05 µM"}
{"SMILES": "C[C@]1(CO)O[C@@H](n2ccc(N)nc2=O)[C@H](O)[C@@H]1O", "strain": "IIIB", "cell line": "MT-4", "result": ">100 µM"}
{"SMILES": "CCC#C[C@]1(C(F)(F)F)OCC(=O)Nc2ccc(Cl)cc21", "changes": "RT-K103N", "result": "<1.763 µM"}
{"SMILES": "Cc1ccnc(SC(F)(F)c2nc3ccccc3o2)n1", "strain": "Calanolide-resistant (RT T139I)", "changes": "RT-T139I", "result": "0.43 µM"}
{"SMILES": "CCC(C)[C@H](NC(=O)CNC(C)(C)c1cccc(F)c1)C(=O)N[C@@H](Cc1ccccc1)[C@H](O)CN(CC(C)C)S(=O)(=O)c1ccc2ncsc2c1", "strain": "RF", "cell line": "MT-2", "result": "<1 µM"}

Blank or dashed fields: not listed here. Two numbers with a dash give a range or band. ECn is the concentration giving n% inhibition of infection, replication or growth.